A mixed list of measured activities; the numbers were collected in NIAID ChemDB.

All rows: whole-cell or culture tests; species: Candida albicans; measure: MIC

Lines come from different laboratories, so protocols vary.

smiles,strain or isolate,method,result
Cc1ccc(C(C)C)cc1.Cc1ccc(N2C=NCCC2)cc1.[Cl][Ru][Cl],-,-,400 µg/mL
C=C(C)CN1C[C@H](OC[C@@]23C[C@@H]4[C@H](C)CC[C@H]4[C@@]4(C=O)C[C@@H]2CC(C(C)C)[C@@]34C(=O)O)O[C@H](C)C1,CL-236,-,0.002 µg/mL
CCCN1CC(C)(C)OC(=O)C1CC(=O)Nc1ccc(C(C)C)cc1,SC5314,broth dilution,>25 µg/mL
CC(C)=C[C@H]1C[C@](C)(O)C2C3CCC4[C@@]5(C)CCC[C@](C)(O[C@H]6OC[C@H](O)[C@H](OC7O[C@H](CO)[C@@H](O)[C@H](O)[C@H]7O)[C@H]6O[C@H]6C[C@H](CO)[C@@H](O)[C@@H]6O)C5CC[C@@]4(C)[C@@]34CO[C@@]2(C4)O1,-,-,50 µg/mL
C[C@@H](SC1COC(/C=C/C=C/c2ccc(C#N)cc2F)OC1)[C@](O)(Cn1cncn1)c1ccc(F)cc1F,CAL-0014,-,0.06 µg/mL
CCCCCCCC(=O)CCCCCC/C=C/C(C(=O)NC(Cc1ccc(OCC=C(C)C)cc1)C(=O)O)C(O)(CC(=O)O)C(=O)O,TIMM0136,-,12.5 µg/mL
O[C@H](c1ccc(Cl)cc1)[C@](O)(Cn1cncn1)c1ccc(Cl)cc1Cl,KE-2,-,100 µg/mL
CC(C)c1ccc(NC(=O)CC2NCC(C)(C)OC2=O)cc1,SC5314,broth dilution,>25 µg/mL
CCc1ccc(-c2nc3cc(NC(=O)OCc4ccccc4)ccc3o2)cc1,RSKK 628,-,50 µg/mL
C1=NCCCN1Cc1ccccc1.Cc1ccc(C(C)C)cc1.[Cl][Ru][Cl],-,-,400 µg/mL
C[C@](O)(c1ccc(F)cc1)[C@](O)(Cn1cncn1)c1ccccc1Cl,KE-2,-,>100 µg/mL
CCCCCCSc1cc(=S)ss1,ATCC 10231,-,250 µg/mL
C[C@@H](SC1COC(/C=C/C=C/c2ccc(C#N)cc2)OC1)[C@](O)(Cn1cncn1)c1ccc(F)cc1F,TIMM3165,-,0.125–0.25 µg/mL
Cc1ccc(C2(c3ccc(C)cc3)C(=O)N(c3ccc([N+](=O)[O-])cc3)C2c2cccs2)cc1,-,-,100 µg/mL
CCN1CC(C)(C)OC(=O)C1CC(=O)NCc1cccs1,SC5314,broth dilution,>25 µg/mL
CCC(C(SCCN)c1c(Cl)ccc([N+](=O)[O-])c1Cl)[N+](=O)[O-],-,-,>1000 µg/mL
CCC(C)/C=C(C)/C=C/C=C(\C)CC(C)CC(C)CC(/C=C(C)/C=C/C(O)C(C)(C)c1cc(O)c([C@@H]2O[C@H](CO)C[C@H](O)[C@H]2O)c(=O)o1)CO,M9001,-,>100 µg/mL
C[C@@H](CC1COC(/C=C/C=C/c2ccc(C#N)cc2F)OC1)[C@](O)(Cn1cncn1)c1ccc(F)cc1F,TIMM3165,-,0.125–0.25 µg/mL
CCOc1ccc(N2C(=O)C(c3ccccc3)(c3ccccc3)C2c2cccs2)cc1,-,-,100 µg/mL
C[C@@](O)(c1ccc(Cl)cc1)[C@](O)(Cn1cncn1)c1ccc(Cl)cc1Cl,KE-2,-,50 µg/mL
Cc1ccc(-c2cc(-c3ccc(Cl)cc3)nc(/N=C3\C(=O)Nc4ccccc43)n2)cc1,-,-,39.06 µg/mL
CN1C(C(=O)Nc2nccs2)=C(O)c2ccccc2S1(=O)=O,1760,-,1000 µg/mL
NC(=S)c1ccnc(SCc2ccc(F)cc2)c1,44859,-,62.5 µM
COc1cc(O)c2c(c1)C(=O)c1c(cc3c(c1O)-c1c(cc(C)c(C(=O)NC(CO)C(=O)O)c1O)[C@H](OC1OC(C)C(O)C(OC4OCC(O)C(O)C4O)C1O)C3O)C2=O,SC14059 (azole-resistant),-,4 µg/mL
Cc1ccc(-c2cc(-c3ccc(Cl)cc3)nc(/N=C3\C(=O)Nc4ccc(Cl)cc43)n2)cc1,-,-,78.12 µg/mL
Cc1c(O)cccc1C(=O)N[C@@H](CSc1ccccc1)[C@H](O)CN1C[C@H]2CCCC[C@H]2C[C@H]1C(=O)NC(C)(C)C,I103,-,>64 µg/mL
CN(C)c1ccc(-c2nc3cc(NC(=O)CCc4ccccc4)ccc3o2)cc1,RSKK 628,-,25 µg/mL
CCN1CC(C)(C)OC(=O)C1CC(=O)N(C)c1ccccc1,SC5314,broth dilution,>50 µg/mL
O=C(Nc1ccc2oc(-c3ccc(F)cc3)nc2c1)OCc1ccc(Cl)cc1,RSKK 628,-,50 µg/mL
CCCNC(=O)CC1C(=O)OC(C)(C)CN1CC,SC5314,broth dilution,>25 µg/mL
CC[C@@H]([C@H](C)O)n1ncn(-c2ccc(N3CCN(c4ccc(OC[C@@H]5CO[C@@](Cn6cncn6)(c6ccc(F)cc6F)C5)cc4)CC3)cc2)c1=O,160 strains,-,0.12 µg/mL
CCSc1nc(Cl)c(C#N)c(-c2ccco2)n1,-,-,>100 µg/mL
NC(=S)c1ccnc(SCc2cccc(Br)c2)c1,44859,-,31.25 µM
CCCCSc1cc(=S)ss1,ATCC 10231,-,125 µg/mL
O=C(Nc1ccc2oc(-c3ccccc3)nc2c1)OCc1ccc(Cl)cc1,RSKK 628,-,25 µg/mL
CN1C=NCCC1.Cc1ccc(C(C)C)cc1.[Cl][Ru][Cl],-,-,200 µg/mL
CCSSc1ssc(=S)c1OC,Clinical isolate 00-622,-,<0.13 µg/mL
Cc1ccc(C2(c3ccc(C)cc3)C(=O)N(c3ccccc3)C2c2cccs2)cc1,-,-,100 µg/mL
CO[C@@H](C)[C@H](N)C(=O)NS(=O)(=O)OC[C@H]1O[C@@H](CCn2nnc(-c3ccc(Oc4ccccc4)cc3)n2)[C@H](O)[C@@H]1O,ATCC 10231,-,>500 µg/mL
CCCCCCCCSc1cc(=S)ss1,ATCC 10231,-,>250 µg/mL
O=C(Cc1ccc([N+](=O)[O-])cc1)Nc1ccc2oc(-c3ccc(F)cc3)nc2c1,RSKK 628,-,12.5 µg/mL
S=c1cc(SCC2CCCC2)ss1,ATCC 10231,-,100 µg/mL
NCCSC(C[N+](=O)[O-])c1cccc(Cl)c1,-,-,100 µg/mL
CCOc1ccc(S(=O)(=O)N2CCN(c3ccccc3)CC2)cc1-c1nc2ncccc2c(=O)[nH]1,ATCC 10231,agar diffusion / agar,62.5 µg/mL
Clc1ccc(C(CCOc2ccccc2Br)Cn2ccnc2)c(Cl)c1,-,-,>100 µg/mL
N#Cc1c(Cl)nc(SCc2ccc(Cl)cc2)nc1-c1cccs1,-,-,100 µg/mL
Cc1ccc(-c2cc(-c3ccc(Cl)cc3)nc(/N=C3\C(=O)N(CN(C)C)c4ccc(Cl)cc43)n2)cc1,-,-,78.12 µg/mL
Clc1ccc(C(CCCOc2ccccc2Br)Cn2ccnc2)c(Cl)c1,-,-,100 µg/mL
CCN1CC(C)(C)OC(=O)C1CC(=O)Nc1ccnn1C,SC5314,broth dilution,>50 µg/mL
NC(=S)c1ccnc(SCc2ccc(Cl)cc2)c1,44859,-,62.5 µM
O=C(c1ccc(Cl)cc1)C(O)(Cn1ccnc1)c1ccc(Cl)cc1,KE-2,-,100 µg/mL
C=C(CF)CN1C[C@H](OC[C@@]23C[C@@H]4[C@H](C)CC[C@H]4[C@@]4(C=O)C[C@@H]2CC(C(C)C)[C@@]34C(=O)O)O[C@H](C)C1,CL-236,-,0.002 µg/mL
Clc1ccccc1C(c1ccccc1)(c1ccccc1)n1ccnc1,IFO 0583,broth dilution,2 µg/mL
NC(=NC1CCCC1)c1ccc(-c2ccc(-c3ccc(C(N)=NC4CCCC4)cc3)o2)cc1,ATCC 76615,-,12.5 µg/mL
Cc1ccc(-c2cc(-c3ccc(Cl)cc3)nc(/N=C3\C(=O)Nc4ccc(Br)cc43)n2)cc1,-,-,39.06 µg/mL
O=C(N/N=C/c1cc([N+](=O)[O-])ccc1O)c1ccc(I)cc1,ATCC 2901,-,>25 µg/mL
O=C(c1ccccc1Cl)C(O)(Cn1ccnc1)c1ccccc1Cl,KE-2,-,100 µg/mL
Cc1ccc(-c2cc(-c3ccc(Cl)cc3)nc(/N=C3\C(=O)N(CN(C)C)c4ccccc43)n2)cc1,-,-,78.12 µg/mL
C=C=CCN1C[C@H](OC[C@@]23C[C@@H]4[C@H](C)CC[C@H]4[C@@]4(C=O)C[C@@H]2CC(C(C)C)[C@@]34C(=O)O)O[C@H](C)C1,CL-236,-,0.004 µg/mL
C[C@@](O)(c1ccc(F)cc1)[C@](O)(Cn1cncn1)c1ccccc1Cl,KE-2,-,>100 µg/mL
COc1ccc(CN2CCN(Cc3ccc(OC)cc3)[C]2=[Ru]([Cl])[Cl])cc1.Cc1ccc(C(C)C)cc1,-,-,800 µg/mL
C[C@](O)(c1ccc(F)cc1)[C@](O)(Cn1cncn1)c1ccc(F)cc1,KE-2,-,>100 µg/mL
C[C@H]1[C@H](O)[C@@H](C)/C=C/C=C/C=C/C=C/C=C/C=C/C=C/[C@H](O[C@@H]2O[C@H](C)[C@@H](O)[C@H](N)[C@@H]2O)C[C@@H]2O[C@](O)(C[C@@H](O)C[C@@H](O)CC[C@H](O)[C@@H](O)C[C@@H](O)CC(=O)O[C@H]1C)C[C@H](O)[C@H]2C(=O)O,24433,broth dilution,0.03 µg/mL
Cc1ccc(-c2cc(-c3ccc(Cl)cc3)nc(/N=C3\C(=O)N(CN4CCOCC4)c4ccccc43)n2)cc1,-,-,39.06 µg/mL
COc1ccc(N2C(=O)C(c3ccc(C)cc3)(c3ccc(C)cc3)C2c2cccs2)cc1,-,-,100 µg/mL
COc1cc(NC(C)CCCN)c2nc(C(C)(C)C)ccc2c1Oc1cccc(C(F)(F)F)c1,-,-,>20 µg/mL
COc1ccc(OCCC(Cn2ccnc2)c2ccc(Cl)cc2Cl)cc1,-,-,100 µg/mL
NC(=S)c1ccnc(SCc2ccccc2F)c1,44859,-,>500 µM
CN(C)c1ccc(CN2CCN(Cc3ccc(N(C)C)cc3)[C]2=[Ru]([Cl])[Cl])cc1.Cc1c(C)c(C)c(C)c(C)c1C,-,-,200 µg/mL
Cc1ccc(N2C(=O)C(c3ccc(C)cc3)(c3ccc(C)cc3)C2c2cccs2)cc1,-,-,100 µg/mL
Clc1ccc(C(CCOc2ccccc2Cl)Cn2ccnc2)c(Cl)c1,-,-,>100 µg/mL
CCc1ccc(-c2nc3cc(NC(=O)OCc4ccc(Cl)cc4)ccc3o2)cc1,RSKK 628,-,25 µg/mL

The last 8 rows once more:

| smiles | strain or isolate | method | result |
|---|---|---|---|
| COc1ccc(N2C(=O)C(c3ccc(C)cc3)(c3ccc(C)cc3)C2c2cccs2)cc1 | - | - | 100 µg/mL |
| COc1cc(NC(C)CCCN)c2nc(C(C)(C)C)ccc2c1Oc1cccc(C(F)(F)F)c1 | - | - | >20 µg/mL |
| COc1ccc(OCCC(Cn2ccnc2)c2ccc(Cl)cc2Cl)cc1 | - | - | 100 µg/mL |
| NC(=S)c1ccnc(SCc2ccccc2F)c1 | 44859 | - | >500 µM |
| CN(C)c1ccc(CN2CCN(Cc3ccc(N(C)C)cc3)[C]2=[Ru]([Cl])[Cl])cc1.Cc1c(C)c(C)c(C)c(C)c1C | - | - | 200 µg/mL |
| Cc1ccc(N2C(=O)C(c3ccc(C)cc3)(c3ccc(C)cc3)C2c2cccs2)cc1 | - | - | 100 µg/mL |
| Clc1ccc(C(CCOc2ccccc2Cl)Cn2ccnc2)c(Cl)c1 | - | - | >100 µg/mL |
| CCc1ccc(-c2nc3cc(NC(=O)OCc4ccc(Cl)cc4)ccc3o2)cc1 | RSKK 628 | - | 25 µg/mL |

Blank or dashed fields: not listed here. a–b is a range or a potency band.